Anti-infective test results gathered from many reports (values: NIAID ChemDB through PubChem).

All rows: tests on isolated targets; target: CCR5; method: radioligand binding / binding; measure: IC50

ICn is the concentration giving n% inhibition. Neighbouring rows are from separate reports.

structure	result
CCCN(C(=O)OCc1ccc2ccccc2c1)C1CCN(CCC(CN(C)S(=O)(=O)c2ccccc2)c2ccccc2)CC1	0.005 µM
CN(CC(c1ccccc1)N1CCC2(CC1)CS(=O)c1ccccc12)S(=O)(=O)c1ccccc1	>10 µM
CN(C[C@@H](CCN1CCC(c2ccccc2)CC1)c1ccc(F)cc1)S(=O)(=O)c1ccccc1	<10 µM
CCN(C(=O)OCc1ccccc1)C1CCN(CCC(CN2C(=O)N[C@H](Cc3c[nH]c4ccccc34)C2=O)c2ccccc2)CC1	0.013 µM
CCCN(C(=O)OCc1ccc(-c2ccccc2)cc1)C1CCN(CCC(CN(C)S(=O)(=O)c2ccccc2)c2ccccc2)CC1	0.016 µM
CN(CC(C)(CCN1CCC2(CC1)CS(=O)c1ccccc12)c1ccccc1)S(=O)(=O)c1ccccc1	0.022 µM
CN(C[C@@H](CCc1ccc(-c2ccccc2)cc1)c1cccc(Cl)c1)S(=O)(=O)c1ccccc1	30 µM
CN(CC(CCN1CCC2(CC1)CS(=O)(=O)c1ccccc12)c1ccccc1)S(=O)(=O)c1ccccc1	0.032 µM
CN(CC(CCN1CCC(c2ccccc2)CC1)C1CCCCC1)S(=O)(=O)c1ccccc1	<10 µM
CCN(C(=O)OCc1ccccc1)C1CCN(CCC(COC)(CN(C)S(=O)(=O)c2ccccc2)c2ccccc2)CC1	0.0023 µM
CCCN(C(=O)c1ccccc1)C1CCN(CCC(CN(C)S(=O)(=O)c2ccccc2)c2ccccc2)CC1	0.1 µM
CN(CC(CN1CCC2(CC1)CS(=O)(=O)c1ccccc12)c1ccccc1)S(=O)(=O)c1ccccc1	>10 µM
CN(CC(CCN1CCC(c2ccccc2)CC1)c1cccc(-c2ccccc2)c1)S(=O)(=O)c1ccccc1	<10 µM
CCN(C(=O)OCc1ccccc1)C1CCN(CC[C@](C)(CN(C)S(=O)(=O)c2ccccc2)c2ccccc2)CC1	0.0006 µM
CN(C[C@@H](CCNCCCCc1ccccc1)c1cccc(Cl)c1)S(=O)(=O)c1ccccc1	>10 µM
CN(CC(CCN1CCC(c2ccccc2)CC1)c1ccccn1)S(=O)(=O)c1ccccc1	<10 µM
CN(Cc1ccccc1)C(=O)NC1CCN(CCC(CN(C)S(=O)(=O)c2ccccc2)c2ccccc2)CC1	0.5 µM
CCCN(C(=O)OCc1ccc([N+](=O)[O-])cc1)C1CCN(CC[C@H](CN(C)S(=O)(=O)c2ccccc2)c2ccccc2)CC1	0.001 µM
CCN(C(=O)OCc1ccccc1)C1CCN(CCC(/C=N/O)(CN(C)S(=O)(=O)c2ccccc2)c2ccccc2)CC1	0.027 µM
CN(CC(C)(CCN1CCC(N(CC(O)CO)C(=O)OCc2ccccc2)CC1)c1ccccc1)S(=O)(=O)c1ccccc1	0.009 µM
O=C(C1CCCCC1)N1C[C@H](CN2CCC(N(Cc3ccccc3)c3ccccn3)CC2)[C@@H](c2ccccc2)C1	<1 µM
CCN(C(=O)OCc1ccccc1)C1CCN(CC[C@](C)(CN(C)S(=O)(=O)c2ccccc2)c2ccccc2)CC1	0.00055 µM
CN(C[C@@H](CCNCCCc1ccccc1)c1cccc(Cl)c1)S(=O)(=O)c1ccccc1	>10 µM
CC(CN1CCC(c2ccccc2)CC1)C(CN(C)S(=O)(=O)c1ccccc1)c1ccccc1	>10 µM
C=CCN(C(=O)OCc1ccccc1)C1CCN(CC[C@](C)(CN(C)S(=O)(=O)c2ccccc2)c2ccccc2)CC1	0.001 µM

A second listing of 2 rows from above:

| structure | result |
|---|---|
| CCCN(C(=O)OCc1ccc([N+](=O)[O-])cc1)C1CCN(CC[C@H](CN(C)S(=O)(=O)c2ccccc2)c2ccccc2)CC1 | 0.001 µM |
| CN(CC(CN1CCC2(CC1)CS(=O)(=O)c1ccccc12)c1ccccc1)S(=O)(=O)c1ccccc1 | >10 µM |